Data as given in PubChem BioAssay AID624099 (ICCB-Longwood, 2012)

Purpose: 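Human genes that papillomavirus E2 requires to repress the HPV18 LCR promoter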 (primary screen)
Cells: human C33A cervical carcinoma cells (HPV-negative) stably expressing BPV1 E2 and an HPV18 LCR luciferase reporter
Reagents: siRNA pool against human genes, 40 nM
Timing: 72 h
Detection: 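HPV18 LCR reporter light per well, converted to plate-wise z-scores that exclude control wells, and averaged over triplicate plates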
Scale: mean z-score and z-score: higher = stronger reporter signal, weaker E2 silencing
Active means: 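Mean z ≥ 2 together with z ≥ 2 in two or more of the three replicates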
In all, the deposit lists about 21,000 reagents; below is a part drawn at random. 497 of them (2.4%) count as active. 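Higher z means weaker E2 silencing; only reporter increases were scored, and knock-downs that hurt cell survival may mask genuine repressor factors.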 Unmarked entries are inactive. The numbers tell different reagents against one gene apart. No sequences are given here.

gene,reagent,mean z-score,"z-score, replicate A","z-score, replicate B","z-score, replicate C"
NT5C1B (GeneID 93034),1,0.25,0.23,0.19,0.33
PSMD14 (GeneID 10213),1,-2.8,-2.68,-2.55,-3.17
YWHAEP7 (GeneID 284100),1,-0.74,-0.82,-0.85,-0.55
PPFIA4 (GeneID 8497),1,1.23,1,1.2,1.49
HNRNPA1P20 (GeneID 344741),1,-0.13,-0.27,0.15,-0.26
GOT1L1 (GeneID 137362),1,-0.96,-1.22,-0.69,-0.95
ZBED10P (GeneID 113763),1,1.46,1.6,1.53,1.24
DUSP2 (GeneID 1844),1,0.86,1.09,0.79,0.68
HOMER3 (GeneID 9454),1,0.18,0.32,0.17,0.04
ZNF529 (GeneID 57711),1,-0.1,-0.31,0.11,-0.08
RPL13AP13 (GeneID 402214),1,0.21,0.47,-0.12,0.29
ZNF831 (GeneID 128611),1,-0.11,-0.05,-0.17,-0.11
CRAT (GeneID 1384),1,-1,-1.02,-0.89,-1.08
RRAGB (GeneID 10325),1,-0.24,-0.09,-0.38,-0.25
BARD1 (GeneID 580),1,-0.75,-0.64,-0.65,-0.96
MRPS18A (GeneID 55168),1,-1.34,-1.19,-1.12,-1.72

Continued (4 carried over from the part before).
gene,reagent,mean z-score,"z-score, replicate A","z-score, replicate B","z-score, replicate C"
CRAT (GeneID 1384),1,-1,-1.02,-0.89,-1.08
RRAGB (GeneID 10325),1,-0.24,-0.09,-0.38,-0.25
BARD1 (GeneID 580),1,-0.75,-0.64,-0.65,-0.96
MRPS18A (GeneID 55168),1,-1.34,-1.19,-1.12,-1.72
PTPN4 (GeneID 5775),1,0.19,0.26,0.1,0.22
SLC6A3 (GeneID 6531),1,-0.24,-0.44,-0.32,0.06
FLJ21369 (retired record) (GeneID 79860),1,-0.9,-0.56,-0.96,-1.16
FLJ90680 (retired record) (GeneID 400926),1,0.17,0.28,0.32,-0.1
LCP1 (GeneID 3936),1,0.57,0.72,0.42,0.56
AFAP1L1 (GeneID 134265),1,0.5,0.46,0.44,0.59
GOSR1 (GeneID 9527),1,0.86,0.88,0.86,0.85
PLEKHG1 (GeneID 57480),1,-1.73,-1.74,-1.81,-1.63
OSBPL6 (GeneID 114880),1,-1.8,-1.93,-1.46,-2.01
RAPGEF1 (GeneID 2889),1,1.01,0.89,1.19,0.95
PRKG2 (GeneID 5593),1,-0.57,-0.37,-0.82,-0.53
PCDHGA2 (GeneID 56113),1,0.91,0.35,1.12,1.26
DNAAF1 (GeneID 123872),1,1.25,1.25,0.87,1.63
FGA (GeneID 2243),1,-1.34,-1.25,-1.33,-1.44
DUS3L (GeneID 56931),1,0.07,-0.12,0,0.31
CLIP4 (GeneID 79745),1,-1.17,-0.97,-1.35,-1.18
NEURL2 (GeneID 140825),1,-0.52,-0.12,-0.64,-0.78
GRID2IP (GeneID 392862),1,0.85,0.83,0.94,0.77
GRID2IP (GeneID 392862),2,0.26,0.3,0.16,0.32
HAUS8 (GeneID 93323),1,-0.13,-0.1,-0.21,-0.08
TMEM237 (GeneID 65062),1,1.57,1.36,1.58,1.78
LOC389638 (retired record) (GeneID 389638),1,1.92,2.28,1.62,1.87
DNAJC13 (GeneID 23317),1,1.07,0.93,0.63,1.64
